The source of these data is patent publication US20160024159A1, “Potent and selective inhibitors of Nav1.7” (published 2016).

Where “and” joins values, the source holds several entries; their conditions need not be identical. Equal values may be shown once. Where only a bound is given, the exact number is not on record here.

Holding throughout (test): cell-based or functional assay
The target of experiment [1] is human voltage-gated sodium channel Nav1.3 (human), Q9NY46.
Experiment [2] concerns the target human voltage-gated sodium channel Nav1.4 (human), P35499.
The target of experiment [3] is human voltage-gated sodium channel Nav1.5 (human), Q14524.
The target in experiment [4] is human voltage-gated sodium channel Nav1.7 (human), Q15858.
Experiment [5] addresses human Nav1.6 voltage-gated sodium channel (human), Q9UQD0.
Experiment [6] deals with human Nav1.7 voltage-gated sodium channel (human), Q15858.

B1: [Glu7,20;Tyr28]JzTx-V(1-29) (peptide)
peptide: YCQKWMETCDSKRACCEGLECKLWCRKYI
modifications: not checked
On to B1, for which the IC50, IonWorks Quattro electrophysiology in experiment [1], in experiment [2], in experiment [3] and in experiment [4] was > 7 µM in each case.

B2: [pI-Phe5;Glu20;Tyr28]JzTx-V(1-29) (peptide)
peptide: YCQKFMWTCDSKRACCEGLECKLWCRKYI
modifications: not checked
Consider B2, for which the IC50, IonWorks Quattro electrophysiology was 1.3 µM in experiment [1], 3.4 µM in experiment [2], > 5 µM in experiment [3] and 0.11 µM in experiment [4]. Moreover, the Nav1.4/Nav1.7 (ratio of IC50) in experiment [2] was 30 fold.

B3: Glu-Pra-[Nle6;Glu11,28]JzTx-V(1-29) (peptide)
peptide: EGYCQKWLWTCDEKRACCEGLRCKLWCRKEI
modifications: not checked
B3 displayed a PX hNav1.6 Tonic IC50 in experiment [5] of 2870 nM. The PX hNav1.7 Tonic IC50 in experiment [6] turned out to be 2.33 nM.

B4: Glu-Pra-[Glu1,11,28;Nle6]JzTx-V(1-29) (peptide)
peptide: EGECQKWLWTCDEKRACCEGLRCKLWCRKEI
modifications: not checked
As for B4, in experiment [5], the PX hNav1.6 Tonic IC50 was found to be 5660 nM. In experiment [6], this molecule gave a PX hNav1.7 Tonic IC50 of 5.59 nM.

B5: [Asn5;Glu20;Tyr28]JzTx-V(1-29) (peptide)
peptide: YCQKNMWTCDSKRACCEGLECKLWCRKYI
modifications: not checked
In the case of B5, the IC50, IonWorks Quattro electrophysiology in experiment [1] was > 5 µM; in experiment [2] it was > 5 µM; in experiment [3], > 5 µM; in experiment [4] it was 4.2 µM and > 5 µM.

B6: [Val5;Glu20;Tyr28]JzTx-V(1-29) (peptide)
peptide: YCQKVMWTCDSKRACCEGLECKLWCRKYI
modifications: not checked
B6: the IC50, IonWorks Quattro electrophysiology was > 5 µM in experiment [1], > 5 µM in experiment [2], > 5 µM in experiment [3] and 3.8 µM in experiment [4].

B7: [Nle6;Atz(NPEG10)22]JzTx-V(1-29) (peptide)
peptide: YCQKWLWTCDSKRACCEGLRCALWCRKII
modifications: not checked
For B7, the IC50, IonWorks Quattro electrophysiology in experiment [1], in experiment [2], in experiment [3] and in experiment [4] was > 7 µM each time.

B8: [Tyr5,28;Glu20]JzTx-V(1-29) (peptide)
peptide: YCQKYMWTCDSKRACCEGLECKLWCRKYI
modifications: not checked
B8: the IC50, IonWorks Quattro electrophysiology is > 5 µM in experiment [1]; > 5 µM in experiment [2]; > 5 µM in experiment [3]; 0.91 µM and 2.5 µM in experiment [4].

B9: Pra-[Glu1,14,28;Nle6]JzTx-V(1-29) (peptide)
peptide: GECQKWLWTCDSKRECCEGLRCKLWCRKEI
modifications: not checked
Molecule B9 came in with a PX hNav1.6 Tonic IC50 in experiment [5] of 2340 nM. In experiment [6], this molecule gave a PX hNav1.7 Tonic IC50 of 1.36 nM.

B10: [Ala29]JzTx-V(1-29) (peptide)
peptide: YCQKWMWTCDSKRACCEGLRCKLWCRKIA
modifications: not checked
On to B10, for which the IC50 (IonWorks Quattro) in experiment [1] was 450 nM; in experiment [2], 270 nM; in experiment [3] it was > 5000 nM; in experiment [4], 53 nM.

B11: [Nle6;Glu20]JzTx-V(1-29) (peptide)
peptide: YCQKWLWTCDSKRACCEGLECKLWCRKII
modifications: not checked
On to B11, for which the IC50, IonWorks Quattro electrophysiology in experiment [1] is 4.1 µM; in experiment [2], > 5 µM; in experiment [3], > 5 µM; in experiment [4], 0.19 µM.

B12: [Leu5;Glu20;Tyr28]JzTx-V(1-29) (peptide)
peptide: YCQKLMWTCDSKRACCEGLECKLWCRKYI
modifications: not checked
For the molecule B12, the IC50, IonWorks Quattro electrophysiology in experiment [1], in experiment [2], in experiment [3] and in experiment [4] was > 5 µM each time.

B13: Pra-[Nle6;Glu11,12,28]JzTx-V(1-29) (peptide)
peptide: GYCQKWLWTCDEERACCEGLRCKLWCRKEI
modifications: not checked
B13 displayed a PX hNav1.6 Tonic IC50 in experiment [5] of 825 nM. The molecule further yielded a PX hNav1.7 Tonic IC50 in experiment [6] of 3.8 nM.

B14: Pra-[Glu1,12,28;Nle6]JzTx-V(1-29) (peptide)
peptide: GECQKWLWTCDSERACCEGLRCKLWCRKEI
modifications: not checked
In experiment [5], B14 returned a PX hNav1.6 Tonic IC50 of 1380 nM. Besides, in experiment [6], the PX hNav1.7 Tonic IC50 amounted to 4.14 nM.

B15: Pra-[Nle6;Ala20;Glu28]JzTx-V(1-29) (peptide)
peptide: GYCQKWLWTCDSKRACCEGLACKLWCRKEI
modifications: not checked
As to B15, the PX hNav1.6 Tonic IC50 in experiment [5] is > 10000 nM. In experiment [6], this molecule displayed a PX hNav1.7 Tonic IC50 of 905 nM.

B16: CyA-[Nle6;Glu12,28;Pra17]JzTx-V(1-29) (peptide)
peptide: AYCQKWLWTCDSERACCGGLRCKLWCRKEI
modifications: not checked
Consider B16, for which the PX hNav1.6 Tonic IC50 in experiment [5] turned out to be 1720 nM. Further, the PX hNav1.7 Tonic IC50 in experiment [6] worked out at 0.87 nM.

B17: [Atz(NPEG10)8;Glu20]JzTx-V(1-29) (peptide)
peptide: YCQKWMWACDSKRACCEGLECKLWCRKII
modifications: not checked
On to B17, for which the IC50, IonWorks Quattro electrophysiology in experiment [1] is > 5 µM; in experiment [2] it was > 5 µM; in experiment [3] it was 18.7 µM. In experiment [2], the Nav1.4/Nav1.7 (ratio of IC50) amounted to 1 fold.

B18: Glu-[Pra1;Nle6;Glu11,28]JzTx-V(1-29) (peptide)
peptide: EGCQKWLWTCDEKRACCEGLRCKLWCRKEI
modifications: not checked
B18 came in with a PX hNav1.6 Tonic IC50 in experiment [5] of 2520 nM. Moreover, in experiment [6], the PX hNav1.7 Tonic IC50 came out at 1.46 nM.

B19: [Nle6;Atz(NPEG10)23]JzTx-V(1-29) (peptide)
peptide: YCQKWLWTCDSKRACCEGLRCKAWCRKII
modifications: not checked
For the molecule B19, the IC50, IonWorks Quattro electrophysiology in experiment [1] was 5.6 µM; in experiment [2], > 7 µM; in experiment [3], > 7 µM; in experiment [4], 4.8 µM.

B20: [Ser7;Glu20;Tyr28]JzTx-V(1-29) (peptide)
peptide: YCQKWMSTCDSKRACCEGLECKLWCRKYI
modifications: not checked
With B20, the IC50, IonWorks Quattro electrophysiology is > 7 µM in experiment [1]; > 7 µM in experiment [2]; > 7 µM and 5.4 µM in experiment [3]; 4.7 µM and 6.6 µM in experiment [4].

B21: [Atz(NPEG10)17;Glu20]JzTx-V(1-29) (peptide)
peptide: YCQKWMWTCDSKRACCAGLECKLWCRKII
modifications: not checked
Turning to B21, the IC50, IonWorks Quattro electrophysiology in experiment [1] is > 5 µM; in experiment [2] it was > 5 µM; in experiment [3], 15.1 µM; in experiment [4], 0.18 µM. Also, in experiment [2], the Nav1.4/Nav1.7 (ratio of IC50) came to 28 fold.

B22: [Glu5,20;Tyr28]JzTx-V(1-29) (peptide)
peptide: YCQKEMWTCDSKRACCEGLECKLWCRKYI
modifications: not checked
B22: the IC50, IonWorks Quattro electrophysiology in experiment [1], in experiment [2], in experiment [3] and in experiment [4] was > 7 µM each time.

B23: Glu-[Pra1;Nle6;Glu11,12,28]JzTx-V(1-29) (peptide)
peptide: EGCQKWLWTCDEERACCEGLRCKLWCRKEI
modifications: not checked
In experiment [5], B23 had a PX hNav1.6 Tonic IC50 of 2730 nM. The PX hNav1.7 Tonic IC50 in experiment [6] was 6.66 nM.

B24: Glu-[Pra1;Nle6; Glu11,14,28]JzTx-V(1-29) (peptide)
peptide: EGCQKWLWTCDEKRECCEGLRCKLWCRKEI
modifications: not checked
As for B24, the PX hNav1.6 Tonic IC50 in experiment [5] is > 10000 nM. In experiment [6], this molecule showed a PX hNav1.7 Tonic IC50 of 2.91 nM.

B25: Pra-[Glu1,11,28;Nle6]JzTx-V(1-29) (peptide)
peptide: GECQKWLWTCDEKRACCEGLRCKLWCRKEI
modifications: not checked
The molecule B25 had a PX hNav1.6 Tonic IC50 in experiment [5] of 2190 nM. In addition, in experiment [6], the PX hNav1.7 Tonic IC50 was 5.55 nM.

B26: [Nva5;Glu20;Tyr28]JzTx-V(1-29) (peptide)
peptide: YCQKVMWTCDSKRACCEGLECKLWCRKYI
modifications: not checked
Regarding B26, the IC50, IonWorks Quattro electrophysiology is > 5 µM in experiment [1], > 5 µM in experiment [2], > 5 µM in experiment [3] and 3.3 µM in experiment [4].

B27: [Phe5;Glu20;Tyr28]JzTx-V(1-29) (peptide)
peptide: YCQKFMWTCDSKRACCEGLECKLWCRKYI
modifications: not checked
Regarding B27, the IC50, IonWorks Quattro electrophysiology in experiment [1] was > 5 µM; in experiment [2] it was > 5 µM; in experiment [3] it was > 5 µM; in experiment [4], 0.16 µM and 0.23 µM.

B28: [Asn7;Glu20;Tyr28]JzTx-V(1-29) (peptide)
peptide: YCQKWMNTCDSKRACCEGLECKLWCRKYI
modifications: not checked
B28: the IC50, IonWorks Quattro electrophysiology is > 7 µM in experiment [1], 6.1 µM in experiment [2], > 7 µM in experiment [3] and 5 µM in experiment [4]. Also, the Nav1.4/Nav1.7 (ratio of IC50) in experiment [2] was 1 fold.

B29: [Lys7;Glu20;Tyr28]JzTx-V(1-29) (peptide)
peptide: YCQKWMKTCDSKRACCEGLECKLWCRKYI
modifications: not checked
Take B29: the IC50, IonWorks Quattro electrophysiology in experiment [1] was > 7 µM; in experiment [2] it was > 7 µM; in experiment [3] it was > 7 µM; in experiment [4], 2.7 µM.

B30: CyA-[Nle6;Glu14,28;Pra17]JzTx-V(1-29) (peptide)
peptide: AYCQKWLWTCDSKRECCGGLRCKLWCRKEI
modifications: not checked
In experiment [5], B30 yielded a PX hNav1.6 Tonic IC50 of 175 nM. The molecule further showed a PX hNav1.7 Tonic IC50 in experiment [6] of 1.19 nM.

B31: Glu-[Pra1;Nle6; Glu14,28]JzTx-V(1-29) (peptide)
peptide: EGCQKWLWTCDSKRECCEGLRCKLWCRKEI
modifications: not checked
As for B31, the PX hNav1.6 Tonic IC50 in experiment [5] was determined as 562 nM. Also, the PX hNav1.7 Tonic IC50 in experiment [6] was 0.525 nM.

B32: [Lys5;Glu20;Tyr28]JzTx-V(1-29) (peptide)
peptide: YCQKKMWTCDSKRACCEGLECKLWCRKYI
modifications: not checked
B32: the IC50, IonWorks Quattro electrophysiology in experiment [1], in experiment [2], in experiment [3] and in experiment [4] was > 5 µM throughout.
